Experimental data reported in patent US20240390459A1, “ANTI-DEPRESSION AND ANTI-ANXIETY APPLICATION OF POLYPEPTIDE AND COMPLEX” (SHENZHEN CHENYANG BIOLOGICAL TECHNOLOGY CO., LTD, priority 2021, published 2024).

B1: TAT-5HT2AR-CT: CT region (K385-V471) of 5-HT2AR fused with TAT (peptide, UniProt P28223 385-471, looked up, fragment)
chain: KTYRSAFSRYIQCQYKENKKPLQLILVNTIPALAYKSSQLQMGQKKNSKQDAKTTDNDCSMVALGKQHSEEASKDNSDGVNEKVSCV
modifications: C-terminal region fused with TAT peptide
notes: CT region (K385-V471) of 5-HT2AR fused with TAT

System: mice
Experiment: Elevated plus maze test (EPM)
Type: in vivo, mouse
Conditions: single intraperitoneal 3 nmol/g, 1 hour after treatment, 5 min, vs TAT
Method: To evaluate the antianxiety-like effect of the polypeptide of the present invention, mice treated with TAT-5HT2AR-SV, TAT-5HT2AR-DV, TAT-5HT2AR-CT (all treated by single intraperitoneal administration, 3 nmol/g) were subjected to open field test (OFT) for measuring residence time in central area and elevated plus maze test (EPM) 1 hour after treatment, with TAT-treated mice as control. Methods for the tests are as follows:
EPM: consists of two open arms (25 cm×8 cm) and two closed arms (25 cm×8 cm), with the intersection as the central area (8 cm×8 cm), which is 40 cm high from the ground. 1 hour after treated with the polypeptide, mice were placed in the central area facing the open arm, and were recorded for their free activities for 5 min. After each animal was tested, the device was wiped with 70% alcohol. The residence time at the open arm, the residence time at the closed arm, and the total movement distance of mice were recorded.

| Molecule | EPM total movement ability (total movement distance) |
| --- | --- |
| TAT-5HT2AR-DV: DV region (D442-V471) of 5-HT2AR fused with TAT (DCSMVALGKQHSEEASKDNSDGVNEKVSCV; C-terminal region fused with TAT peptide; UniProt P28223 442-471, looked up, fragment) | did not affect the total movement ability of mice |
| B1 | did not affect the total movement ability of mice |
